Measured values from several laboratories, pooled; numbers as filed in NIAID ChemDB.

Common to all: growth or infection tests; agent: Herpes simplex virus 1; cell line: E6SM; method: cytopathic effect; endpoint: EC50

ECn: concentration that inhibits the pathogen or its effect by n%. Lines come from different laboratories, so protocols vary.

{"smiles": "Nc1nc2c(ncn2COCCO)c(=O)[nH]1", "strain or isolate": "TK-deficient acyclovir-resistant", "result": "≥80 µg/mL"}
{"smiles": "Nc1nc2c(nnn2C[C@H]2CC[C@@H](CO)C2)c(=O)[nH]1", "strain or isolate": "VMW1837 (TK-)", "result": ">200 µg/mL"}
{"smiles": "Cc1cn([C@H]2C[C@H](O)[C@@H](CO)S2)c(=O)[nH]c1=O", "strain or isolate": "KOS McIntyre F", "result": "0.013 µM"}
{"smiles": "OC[C@H]1O[C@H](n2cnc3cc(Cl)c(Cl)cc32)[C@@H](O)[C@H]1O", "strain or isolate": "KOS", "result": ">200 µg/mL"}
{"smiles": "Cc1ccc2c(c1)COP(=O)(OCCOCn1cnc3c(=O)[nH]c(N)nc31)O2", "strain or isolate": "TK-deficient acyclovir-resistant", "result": "0.95 µg/mL"}
{"smiles": "Oc1cccc(O)c1O", "strain or isolate": "B2006 (TK-)", "result": "15 µg/mL"}
{"smiles": "Nc1ncnc2c1ncn2[C@@H]1O[C@H](C#CCl)[C@@H](O)[C@H]1O", "strain or isolate": "VMW1837 (TK-)", "result": "140 µM"}
{"smiles": "COc1ccc2c(c1)COP(=O)(OC[C@@H]1C=C[C@H](n3cnc4c(NC5CC5)nc(N)nc43)C1)O2", "strain or isolate": "KOS", "result": "6.4 µg/mL"}
{"smiles": "O=[N+]([O-])c1cc(Cl)c(Cl)cc1[N+](=O)[O-]", "strain or isolate": "KOS", "result": ">1 µg/mL"}
{"smiles": "O=C(O)c1cc(O)c(O)c(O)c1", "strain or isolate": "B2006 (TK-)", "result": "20 µg/mL"}
{"smiles": "CC(C)[Si]1(C(C)C)OC[C@H]2O[C@@H](n3cnc4cc(Cl)c(Cl)cc43)[C@H](O)[C@H]2O[Si](C(C)C)(C(C)C)O1", "strain or isolate": "KOS", "result": ">10 µg/mL"}
{"smiles": "Nc1nc(NC2CC2)c2ncn([C@H]3C=C[C@@H](CO)C3)c2n1", "strain or isolate": "KOS", "result": "≥40 µg/mL"}
{"smiles": "CC#CSC[C@H]1O[C@@H](n2cnc3c(N)ncnc32)[C@H](O)[C@@H]1O", "strain or isolate": "VMW1837 (TK-)", "result": "250 µM"}
{"smiles": "O=c1[nH]c(=O)n([C@H]2C[C@H](O)[C@@H](CO)S2)cc1C1CCCC1", "strain or isolate": "KOS McIntyre F", "result": "13 µM"}
{"smiles": "Nc1nc(N)c2ncn(C[C@H]3CC[C@@H](CO)C3)c2n1", "strain or isolate": "KOS", "result": ">400 µg/mL"}
{"smiles": "O=c1ccn([C@H]2C[C@H](O)[C@@H](CO)S2)c(=O)[nH]1", "strain or isolate": "KOS McIntyre F", "result": "16 µM"}
{"smiles": "Cc1cc(O)cc(O)c1CC(=O)O", "strain or isolate": "B2006 (TK-)", "result": "40 µg/mL"}
{"smiles": "NC(=O)c1ncn([C@@H]2O[C@H](CO)[C@@H](O)[C@H]2O)n1", "strain or isolate": "VMW1837 (TK-)", "result": "192 µM"}
{"smiles": "OC[C@H]1O[C@@H](n2cnc3cc(Cl)c(Cl)cc32)[C@H](O)[C@H]1O", "strain or isolate": "KOS", "result": ">4 µg/mL"}
{"smiles": "Cc1cc(O)ccc1O", "strain or isolate": "B2006 (TK-)", "result": "120 µg/mL"}
{"smiles": "O=c1[nH]c(=O)n([C@H]2C[C@H](O)[C@@H](CO)O2)cc1C1CCC1", "strain or isolate": "KOS McIntyre F", "result": "34 µM"}
{"smiles": "Nc1nc(NC2CC2)c2ncn([C@H]3C=C[C@@H](COP4(=O)OCc5cc(Cl)ccc5O4)C3)c2n1", "strain or isolate": "KOS", "result": "24 µg/mL"}
{"smiles": "Nc1nc(Cl)c2nnn(C[C@H]3CC[C@@H](CO)C3)c2n1", "strain or isolate": "B2006 (TK-)", "result": ">200 µg/mL"}
{"smiles": "C[C@@H]1CC[C@H]2[C@@H](C)C(=O)O[C@@H]3OC4(C)CC[C@@H]1[C@]32OO4", "strain or isolate": "KOS", "result": ">400 µg/mL"}
{"smiles": "NC(=S)N/N=C(\\c1ccccn1)C12CC3CC(CC(C3)C1)C2", "strain or isolate": "KOS", "result": ">400 µg/mL"}
{"smiles": "Nc1nccc2c1ncn2[C@@H]1C[C@H](CO)[C@@H](O)[C@H]1O", "strain or isolate": "B2006 (TK-)", "result": "20 µg/mL"}
{"smiles": "Nc1nc2c(ncn2C[C@H]2CC[C@@H](CO)C2)c(=O)[nH]1", "strain or isolate": "VMW1837 (TK-)", "result": ">400 µg/mL"}
{"smiles": "OCCOC(CCO)n1cnc2cc(Cl)c(Cl)cc21", "strain or isolate": "KOS", "result": ">100 µg/mL"}

3 of the rows above, restated:

{"smiles": "Nc1nc2c(nnn2C[C@H]2CC[C@@H](CO)C2)c(=O)[nH]1", "strain or isolate": "VMW1837 (TK-)", "result": ">200 µg/mL"}
{"smiles": "Oc1cccc(O)c1O", "strain or isolate": "B2006 (TK-)", "result": "15 µg/mL"}
{"smiles": "NC(=O)c1ncn([C@@H]2O[C@H](CO)[C@@H](O)[C@H]2O)n1", "strain or isolate": "VMW1837 (TK-)", "result": "192 µM"}